A mixed list of measured activities; the numbers were collected in NIAID ChemDB.

Common to all: whole-cell or culture tests; organism: Plasmodium falciparum; read-out: EC50

ECn: concentration that inhibits the pathogen or its effect by n%. Lines come from different laboratories, so protocols vary. An empty or dashed field is not shown.

smiles,strain,changes,method,setting,result
CCO/C(=N/NC(=O)OC(C)(C)C)C(C)(O)c1ccc(Cl)c(Cl)c1,3D7,,hypoxanthine uptake / radiometric,,4.9 µM
CCN(CC)CCCC(C)Nc1ccnc2cc(Cl)ccc12,K1,,,,0.21 µg/mL
Cc1cn([C@H]2C[C@H](O)[C@@H](CNS(=O)(=O)c3ccc([N+](=O)[O-])cc3)O2)c(=O)[nH]c1=O,,,SYBR Green,,>100 µM
NC(=O)C(CCC[NH3+])NC(=O)CCCCCCCNC(=O)C(CCCC[NH3+])NC(=O)CCCCCCCNC(=O)C(CCCC[NH3+])NC(=O)CCCCCCCNC(=O)C(N)CCCC[NH3+],FCR3,,hypoxanthine uptake,,130 µM
C[C@H]1[C@@H](O)O[C@@H]2OC3(C)CC[C@H]4[C@H](C)CC[C@@H]1[C@@]24OO3,3D7,,LDH,,0.006 µg/mL
CN(C)c1cc[n+](Cc2ccc(CCc3ccc(-[n+]4ccc(N(C)c5ccc(Cl)cc5)cc4)cc3)cc2)cc1,3D7,,SYBR Green,,0.005 µM
CC(C)Nc1nc2cc(-c3ccc(Cl)cc3)sc2c(=O)[nH]1.O=C(O)/C=C/C(=O)O,K1,,SYBR Green,,0.2 µM
COc1cc(OC)c(OC)cc1/C=C/C(=O)c1ccc(Cl)cc1,Dd2,,SYBR Green / fluorescence,,6.8 µM
CC(=O)O[C@H]1CC2C(C3CC[C@H](C(C)CCCN(CCCNc4ccnc5cc(Cl)ccc45)CCCC(C)[C@H]4CCC5C6C(C[C@H](OC(C)=O)[C@@]54C)[C@@]4(C)CC[C@@H](NC(=O)OC(C)(C)C)C[C@H]4C[C@H]6OC(C)=O)[C@]31C)[C@H](OC(C)=O)C[C@@H]1C[C@H](NC(=O)OC(C)(C)C)CC[C@]21C,W2,,SYBR Green,,0.369 µM
N=C(N)c1cccc(OCCCCCCOc2cccc(C(=N)N)c2)c1,D6,,hypoxanthine uptake,,0.05 µM
O=C(/C=C/C=C/c1ccc2c(c1)OCO2)c1ccc(Cl)cc1,Dd2,,SYBR Green / fluorescence,,73 µM
CCN(CC)CCCC(C)Nc1ccnc2cc(Cl)ccc12,Dd2,CQ-resistant,LDH,,0.378 µM
CCC1OC(O)(C(C)(O)C(=O)N[C@@H]2C(=O)N3NCCC[C@@H]3C(=O)N(O)[C@@H](COC)C(=O)N3NCC(OC4CC(OC)C(OC5CC(OC)C(O)C(C)O5)C(C)O4)=CC3C(=O)N3CC[C@@H](O)[C@H]3C(=O)N(O)[C@@H](CC)C(=O)O[C@H]2C(C)C)CCC1C(=O)C(C)(O)CC,3D7,,absorbance,,0.009 µM
CCOC(=O)N/N=C(/OCC)C(C)(O)c1ccc(F)c(Br)c1,3D7,,hypoxanthine uptake / radiometric,,1.5 µM
CCN(CC)CCCC(C)Nc1ccnc2cc(Cl)ccc12,Dd2,,,24 h,>1 µg/mL
COc1ccc(C(=O)/C=C/c2cccc3ccccc23)cc1,Dd2,,SYBR Green / fluorescence,,18.2 µM
N=C(N)c1ccc(OCCCCCCOc2ccc(C(=N)N)cc2)cc1,W2,,hypoxanthine uptake,,0.256 µM
C[C@H]1CCc2c([nH]c3ccccc23)[C@@]2(N1)C(=O)Nc1ccc(Cl)cc12,GNF-Pf4492R-2,GNF-Pf4492-resistant I203L/P990R,SYBR Green / fluorescence,,0.149 µM
COc1cc(C(=N)N)ccc1OCCCCOc1ccc(C(=N)N)cc1OC,D6,,hypoxanthine uptake,,0.389 µM
CCCCCCCCCCCC(=O)NC(CCCC[NH3+])C(=O)NCCCCCCCC(=O)NC(CCCC[NH3+])C(=O)NC(CCCC[NH3+])C(=O)NCCCCCCCC(=O)NC(CCCC[NH3+])C(N)=O,NF54,,hypoxanthine uptake,,>10 µM
CCN(CC)CCCC(C)Nc1ccnc2cc(Cl)ccc12,K1,,,,0.148 µM
O=C(Nc1cc(C(F)(F)F)ccc1-n1cncn1)C1(c2ccccc2)CC1,K1,,,,0.129 µM
CCO/C(=N/NC(=O)OC)C(C)(O)c1ccc(Cl)c(C)c1,3D7,,hypoxanthine uptake / radiometric,,5.1 µM
N=C(N)c1ccc(OCCCCCOc2ccc(C(=N)N)cc2)cc1,D6,,hypoxanthine uptake,,0.051 µM
CN(C)c1cc[n+](-c2ccc(CCCCc3ccc(C[n+]4c[nH]c5c(SCc6ccccc6)ncnc54)cc3)cc2)cc1,3D7,,SYBR Green,,0.5 µM
CN1CCC(N(C)C(=O)c2c[n+]3c(cn2)CN=C3c2ccc(C(F)(F)F)cc2)CC1,,,SYBR Green,,>10 µM
CO/C(=N/NC(=O)OC(C)(C)C)C(C)(O)c1ccc(Cl)c(Cl)c1,3D7,,hypoxanthine uptake / radiometric,,2.5 µM
CCCCCCCC(=O)NC(CCCC[NH3+])C(=O)NCCCCCCCC(=O)NC(CCCC[NH3+])C(=O)NCCCCCCCC(=O)NC(CCCC[NH3+])C(=O)NCCCCCCCC(=O)NC(CCCC[NH3+])C(=O)NCCCCCCCC(=O)NC(CCCC[NH3+])C(N)=O,FCR3,,hypoxanthine uptake,,49 µM
Cc1ccc(-n2cc(/C=N/Nc3ccncc3)c(-c3ccccc3)n2)cc1,RKL9,,,,0.076 µM
CCN(CC)CCCC(C)Nc1ccnc2cc(Cl)ccc12,W2,,hypoxanthine uptake / radiometric,,0.29 µM
CCOC(=O)C1=C(O)/C(=C\c2cc(C)n(C3CCN(CCN4CCCCC4)CC3)c2C)N=C1C,K1,Chloroquine/pyrimethamine-resistant,,,2.4 µM
N=C(N)c1ccc(OCCCCOc2ccc(C(=N)N)cc2N)c(N)c1,W2,,hypoxanthine uptake,,0.339 µM
Cn1nc(C(F)(F)F)c(-c2ccc(Br)cc2)c1NC(=O)Nc1ccc(F)cc1F,GNF-Pf4492R-1,GNF-Pf4492-resistant A211T,SYBR Green / fluorescence,,1.17 µM
COc1cc(OC)c(OC)cc1/C=C/C=C/C(=O)c1ccc(Cl)c(Cl)c1,3D7,,SYBR Green / fluorescence,,50 µM
CCN(CC)CCCC(C)Nc1ccnc2cc(Cl)ccc12,Dd2,,radiometric,,0.1 µM
COc1cc(C2=NCCN2)ccc1OCCCCOc1ccc(C2=NCCN2)cc1OC,D6,,hypoxanthine uptake,,0.385 µM
CCO/C(=N/NC(=O)OC(C)(C)C)C(C)(O)c1ccc2ccccc2c1,3D7,,hypoxanthine uptake / radiometric,,4.4 µM
CCCCCCCCCCCC(=O)NC(CCCC[NH3+])C(=O)NCCCCCCCCCCCC(=O)NC(CCCC[NH3+])C(=O)NCCCCCCCCCCCC(=O)NC(CCCC[NH3+])C(=O)NCCCCCCCCCCCC(=O)NC(CCCC[NH3+])C(N)=O,FCR3,,hypoxanthine uptake,,0.7 µM
COC(=O)CC1(O)C=CC(=O)C=C1,K1,,,,7.82 µg/mL
O=C(/C=C/C=C/c1ccc(Cl)cc1)c1ccc(Br)cc1,3D7,,SYBR Green / fluorescence,,22.5 µM
O=Cc1cn(-c2ccc(Cl)cc2)nc1-c1ccccc1,RKL9,,,,0.041 µM
N=C(N)c1ccc(NCCCCCCNc2ccc(C(=N)N)cc2N)c(N)c1,D6,,hypoxanthine uptake,,0.079 µM
CCOC(=O)N/N=C(/OCC)C(C)(O)c1ccc(Cl)cc1,3D7,,hypoxanthine uptake / radiometric,,5 µM
CCOC(=O)C1=C(C(=O)OCC)C2N(Cc3ccccc3C(F)(F)F)c3ccccc3[C@@]23C[C@@H](C(=O)OC)N(S(=O)(=O)c2ccc(C)cc2)C3=N1,HB3 Dd2,,SYBR Green / fluorescence,,0.6 µM
CCCCCCCCCCCC(=O)NC(CCCC[NH3+])C(=O)NCCCCCCCC(=O)NC(CCCC[NH3+])C(N)=O,FCR3,,hypoxanthine uptake,,0.4 µM
C/C(=N\NC(=S)NCCNc1ccnc2cc(Cl)ccc12)c1ccccn1,3D7,,SYBR Green / fluorescence,,0.25 µM
O=C(/C=C/C=C/c1ccc2c(c1)OCO2)c1ccc(F)cc1,Dd2,,SYBR Green / fluorescence,,17 µM

Repeating the final 5 entries:

smiles	strain	changes	method	setting	result
CCOC(=O)N/N=C(/OCC)C(C)(O)c1ccc(Cl)cc1	3D7		hypoxanthine uptake / radiometric		5 µM
CCOC(=O)C1=C(C(=O)OCC)C2N(Cc3ccccc3C(F)(F)F)c3ccccc3[C@@]23C[C@@H](C(=O)OC)N(S(=O)(=O)c2ccc(C)cc2)C3=N1	HB3 Dd2		SYBR Green / fluorescence		0.6 µM
CCCCCCCCCCCC(=O)NC(CCCC[NH3+])C(=O)NCCCCCCCC(=O)NC(CCCC[NH3+])C(N)=O	FCR3		hypoxanthine uptake		0.4 µM
C/C(=N\NC(=S)NCCNc1ccnc2cc(Cl)ccc12)c1ccccn1	3D7		SYBR Green / fluorescence		0.25 µM
O=C(/C=C/C=C/c1ccc2c(c1)OCO2)c1ccc(F)cc1	Dd2		SYBR Green / fluorescence		17 µM